Earlier results, collected in PMC5615050 (Scientific Reports, 2017).

Test system: NA with dual mutation (H274Y and I222R)
Conditions: cited from earlier work

Compound | fold reduction in NA inhibition caused by dual mutation (H274Y and I222R)
CCOC(=O)C1=C[C@@H](OC(CC)CC)[C@H](NC(C)=O)[C@@H](N)C1 | ~ 12,000 fold
peramivir | ~ 7,500 fold
